{"sequences": {"note": "Amino acid sequences for entries named in this document (tags omitted). A change or cut given only in a name is not applied to a line headed by its entry.", "UniProt Q49424": "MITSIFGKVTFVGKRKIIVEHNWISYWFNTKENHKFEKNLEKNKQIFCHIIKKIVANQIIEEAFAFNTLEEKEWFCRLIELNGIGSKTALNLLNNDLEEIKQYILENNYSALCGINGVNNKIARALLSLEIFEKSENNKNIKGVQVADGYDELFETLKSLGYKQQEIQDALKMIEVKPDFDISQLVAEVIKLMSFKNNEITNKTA"}, "source": "paper PMC3364216", "key": {"[1]": {"target": "RuvAMge (Mycoplasma genitalium G37 (ATCC 33530)) (UniProt Q49424)", "experiment": "EMSA", "conditions": "20 mM Tris-HCl pH 7.5, 1 mM DTT, 1 mM EDTA, 12.3 nM DNA, 10 ul, on ice 10 min, 8% PAGE in 0.5x TBE, recombinant protein, residues 1-205, protein details: N-terminal H10 (pET-16b)"}, "[2]": {"target": "T1, RuvAMpn (Mycoplasma pneumoniae M129 (ATCC 29342)) (UniProt P75243)", "T1 sequence (looked up)": "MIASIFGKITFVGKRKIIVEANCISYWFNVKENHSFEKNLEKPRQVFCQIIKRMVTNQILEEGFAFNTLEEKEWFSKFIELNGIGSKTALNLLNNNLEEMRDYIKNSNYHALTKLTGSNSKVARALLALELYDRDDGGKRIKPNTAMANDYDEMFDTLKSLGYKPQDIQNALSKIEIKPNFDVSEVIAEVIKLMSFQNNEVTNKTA", "experiment": "EMSA", "conditions": "10 mM Mg2+; 20 mM Tris-HCl pH 7.5, 1 mM DTT, 1 mM EDTA, 12.3 nM DNA, 10 ul, on ice 10 min; 8% PAGE in 0.5x TBE; +/- 10 mM Mg2+; recombinant protein; residues 1-206; protein details: N-terminal H10 (pET-16b); label: 5' 6-FAM on HJ11 (unlabeled as competitor); folded or branched DNA"}}, "note": "A weaker result is weaker than the reference pair of the same experiment. For at least one entry, the source does not settle the construct or the ends of the probe. For part of these data: Tags and fusion partners may be left off the protein sequences shown."}
{"sequence": "GCGACGTGATCACCAGATGATTGCTAGGCATGCTTTCCGCAAGAGAAGC / GGCTTCTCTTGCGGAAAGCATGCCTAGCAATCCTGTCAGCTGCATGGAAC / GGTTCCATGCAGCTGACAGGATTGCTAGGCTCAAGGCGAACTGCTAACGG / ACCGTTAGCAGTTCGCCTTGAGCCTAGCAATCATCTGGTGATCACGTCGC [HJ 1.1]", "values": [{"measurement": "binding result", "setting": "[1]; 10 mM Mg2+, +/- 10 mM Mg2+, label: 5' 6-FAM on HJ11 (unlabeled as competitor), folded or branched DNA", "result": "binds more weakly"}, {"measurement": "binding result", "setting": "[2]", "result": "binds more weakly"}]}
{"sequence": "GCGACGTGATCACCAGATGATTGCTAGGCATGCTTTCCGCAAGAGAAGC [HJ11]", "values": [{"measurement": "binding result", "setting": "[1]; no Mg2+, considerably less efficient than HJ, +/- 10 mM …, label: 5' 6-FAM (unlabeled as competitor), single-stranded DNA", "result": "binds more weakly"}]}
